A mixed list of measured activities; the numbers were collected in NIAID ChemDB.

All rows: tests in culture

ECn: concentration that inhibits the pathogen or its effect by n%.

SMILES | read by | species | tested at | strain | measure | cells | result
CC1S/C(=N/N=C2\C(=O)Nc3ccc([N+](=O)[O-])cc32)N(c2ccc(F)cc2)C1=O | cytopathic effect | Bovine viral diarrhea virus |  |  | EC50 | MDBK | >3 µg/mL
COc1cc(N=C(N)N)ccc1-c1ccc(-c2ccc(N=C(N)N)cc2OC)o1 |  | Bovine viral diarrhea virus | 25 µM |  | inhibition | MDBK | 93%
O=[N+]([O-])c1ccc2[nH]c(O)c(N=NC(=S)NC3CCCCC3)c2c1 | cytopathic effect | Bovine viral diarrhea virus |  |  | EC50 | MDBK | >5 µg/mL
Cc1ccccc1-c1nc2ccn(Cc3ccc(Br)cc3)cc-2n1 | cytopathic effect | Bovine viral diarrhea virus |  | PE515 | EC50 | MDBK | 0.033 µg/mL
Nc1nc(=O)n([C@H]2C[C@H](O)[C@@H](CO)O2)cc1/C=C/Cl | cytopathic effect | Bovine herpesvirus 1 |  | LA (TYPE 1) | EC50 | PRK | 150 µg/mL
CCCCNC(=S)N=Nc1c(O)n(CN2CCOCC2)c2ccc([N+](=O)[O-])cc12 | cytopathic effect | Bovine viral diarrhea virus |  |  | EC50 | MDBK | >19 µg/mL
Brc1ccc(Cn2ccc3nc(-c4ccccc4)nc-3c2)cc1 | ELISA | Bovine viral diarrhea virus |  | NADL (TYPE 1) | EC50 | MDBK | 0.33 µM
CCNC(=S)N=Nc1c(O)[nH]c2ccc([N+](=O)[O-])cc12 | cytopathic effect | Bovine viral diarrhea virus |  |  | EC50 | MDBK | >50 µg/mL
Brc1ccc(Cn2ccc3nc(-c4cccc(I)c4)nc-3c2)cc1 | cytopathic effect | Bovine viral diarrhea virus |  | PE515 | EC50 | MDBK | 0.0042 µg/mL
Nc1nc2c(ncn2CCC(CO)CO)c(=O)[nH]1 | plaque count | Bovine herpesvirus 1 |  | Oxford 1964 | EC50 | EBTR | 100 µg/mL
CO/N=C(/N)c1ccc(-c2ccc(-c3ccc(/C(N)=N\OC)cc3)o2)cc1 |  | Bovine viral diarrhea virus | 5 µM |  | inhibition | MDBK | 0%
Clc1ccc(-c2nc3ccn(Cc4ccc(Br)cc4)cc-3n2)cc1 | cytopathic effect | Bovine viral diarrhea virus |  | PE515 | EC50 | MDBK | 0.021 µg/mL
Cc1c(-c2ccc(C(=N)N)cc2)oc(-c2ccc(C(=N)N)cc2)c1C |  | Bovine viral diarrhea virus | 5 µM |  | inhibition | MDBK | 69%
Brc1ccc(Cn2ccc3nc(/C=C/c4ccccc4)nc-3c2)cc1 | cytopathic effect | Bovine viral diarrhea virus |  | PE515 | EC50 | MDBK | 0.017 µg/mL
c1cc(-c2ccc(-c3nc4ccc(C5=NCCN5)cc4[nH]3)o2)ccc1C1=NCCN1 |  | Bovine viral diarrhea virus | 5 µM |  | inhibition | MDBK | 0%
c1ccc(CCOn2ccc3nc(-c4ccccc4)nc-3c2)cc1 | cytopathic effect | Bovine viral diarrhea virus |  | PE515 | EC50 | MDBK | 0.01 µg/mL

For reference, 2 entries again:

SMILES	read by	species	tested at	strain	measure	cells	result
c1cc(-c2ccc(-c3nc4ccc(C5=NCCN5)cc4[nH]3)o2)ccc1C1=NCCN1		Bovine viral diarrhea virus	5 µM		inhibition	MDBK	0%
c1ccc(CCOn2ccc3nc(-c4ccccc4)nc-3c2)cc1	cytopathic effect	Bovine viral diarrhea virus		PE515	EC50	MDBK	0.01 µg/mL

Lines come from different laboratories, so protocols vary. Blank or dashed fields: not listed here. Inhibition is in % at the dose shown (toxicity tests: loss of growth or viability).